This is an account of results in article PMC3961230, “Theoretical and Experimental Studies of New Modified Isoflavonoids as Potential Inhibitors of Topoisomerase I from Plasmodium falciparum” (PLoS ONE, 2014).

Series [1] concerns P. falciparum CQ-sensitive (3D7 strain). Put plainly: anti-HRPII test, P. falciparum blood parasites, CQ-sensitive 3D7 strain. The series is classed as cell-based, Plasmodium falciparum. The following applies: selectivity index = ratio between toxicity (BGM) and activity (3D7); below 10 indicative of toxicity. The source says:
(§1) A CQ-resistant and mefloquine-sensitive P. falciparum, clone W2 [27] and a CQ-sensitive strain 3D7, were cultivated as described, in human erythrocytes (A^+), in complete medium (RPMI 1640 supplemented with 10% human sera blood group A^+) and tests followed a protocol slightly modified as follows. Human erythrocytes (A^+) and serum blood group A^+ were kindly donated by Center of Hemotherapy and Hemathology of Minas Gerais (HEMOMINAS - http://www.hemominas.mg.gov.br), under the mutual cooperation term number 18/09.
(§2) The ring-stage parasites sorbitol-synchronized were adjusted for parasitemia and hematocrit, according to the specifications for the test, then distributed in 96-well microtiter plates (Corning, Santa Clara, CA, EUA), previously prepared and containing the diluted compounds in dimethyl sulfoxide (DMSO) (0.02%) aqueous stock solution, in triplicates for each dose. CQ, the standard antimalarial, was tested in parallel each time. The drug activity was determined in relation to parasite cultures in complete medium and no drugs, as described. Parasite growth was measured through the anti-HRPII test in cultures adjusted to 1.5% hematocrit and 0.05% parasitemia, with monoclonal antibodies (MPFM-55A and MPFG-55P) commercially acquired (ICLLAB®, USA) and the TMB chromogen (3,3′,5,5′-Tetramethylbenzidine) from KPL (Gaithersburg, MD, EUA). The reaction was stopped with […] of 1 M sulfuric acid, absorbance read at 450 nm in a spectrophotometer (SpectraMax340PC384, Molecular Devices). Sigmoid dose-response curves were generated with curve-fitting software (Microcal Origin Software 5.0, Inc.), used to determine the 50% inhibitory concentration of the parasite growth (IC50), and activity calculated by comparing growth in drug-exposed cultures and the drug-free control cultures.

In series [2] the test system is P. falciparum CQ-resistant (W2 clone). Put plainly: anti-HRPII test, P. falciparum blood parasites, CQ-resistant W2 clone. The format is cell-based, Plasmodium falciparum. The note with it: selectivity index = ratio between toxicity (BGM) and activity (W2); below 10 indicative of toxicity.
Description: as §1, §2

Consider `O=C1C2=C(C(=O)c3ccccc31)[C@H]1Oc3ccccc3[C@H]1CO2` (relative stereo) [LQB118], for which, in series [1], the “SI, 3D7” value is 24. The “SI, W2” value in series [2] amounted to 23.

For `Cc1ccc(S(=O)(=O)N2c3ccccc3[C@H]3COC4=C(C(=O)c5ccccc5C4=O)[C@H]32)cc1` (relative stereo) [LQB192], in series [1], the “SI, 3D7” value is given as 18. For the same compound, the “SI, W2” value in series [2] turned out to be 24. As to `COc1ccc2c(c1)O[C@@H]1C3=C(OC[C@H]21)C(=O)c1ccccc1C3=O` (relative stereo) [LQB216], the “SI, 3D7” value in series [1] was found to be 115. Also, the “SI, W2” value in series [2] was 60. With `COC(=O)c1ccc2c(c1)[C@H]1COC3=C(C(=O)c4ccccc4C3=O)[C@H]1O2` (relative stereo) [LQB221], the “SI, 3D7” value in series [1] is reported as 20. Besides, the “SI, W2” value in series [2] is reported as 8. For the compound `Cc1ccc(S(=O)(=O)N2c3ccccc3[C@H]3CCc4ccccc4[C@H]32)cc1` (relative stereo) [LQB223], in series [1], the “SI, 3D7” value is reported as 128.
